System: Gram-positive aerobic and Gram-positive/Gram-negative anaerobic organisms
Experiment: In vitro antibacterial spectrum (in words)
Type: cell-based
Conditions: for effect of acidic medium on activity: acidic media; for antibacterial spectrum: in vitro

Row | SMILES | effect of acidic medium on activity | antibacterial spectrum
1 | Cc1cc(O)c(C(N)=O)c2nc(-c3nc(CO)ncc3O)oc12 [Boxazomycin A] | enhanced activity in acidic media, especially against anaerobic bacteria | inhibiting Gram-positive aerobic and Gram-positive/Gram-negative anaerobic organisms
2 | Cc1ncc(O)c(-c2nc3c(C(N)=O)c(O)cc(C)c3o2)n1 [Boxazomycin B] | enhanced activity in acidic media, especially against anaerobic bacteria | inhibiting Gram-positive aerobic and Gram-positive/Gram-negative anaerobic organisms
